The text below walks through data of article PMC7798916 (National Science Review, 2020).

The test addresses SARS-CoV RBD (SARS-CoV (NC_004718.3, Tor2), UniProt P59594). The experiment in a line: BLI. The note with it: both partners purified.

B1: HB27 (humanized monoclonal antibody, IgG) (antibody, V domains shown)
VH: VKLVESGGGLVKPGGSLRLSCAASGFTFTNYGMSWVRQAPGKRLEWVAEISSGGSYTYYPDTVTGRFTISRDNAKNTLYLQMNSLRAEDTAVYYCARFRYGGGGTVDYWGQGTLVTVSS
VL: IVLTQSPTLSLSPGERATLSCRASESVDNYGISFMNWFQQKPGQAPRLLIYAASNQGSGIPSRFSGSGSGTDFSLTISSLEPEDFAVYFCQQSKEVPRIFGQGTKVEIL
notes: also called HB27 IgG; source: CHO cell line
As for B1, the binding result is “no binding”.
